# Test results from PubChem BioAssay AID1899 (The Scripps Research Institute Molecular Screening Center, 2009).
# This is a selection; strong and weak results do not stand in their true shares. Activity calls are given as the source filed them.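 Rule for the calls: active = inhibition above the mean of all tested compounds plus 3 SD, set per screening campaign (cut at about 45% in these data); inactive = the rest.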
# Tested on: HCV core protein (residues 1-106) dimerization
# Experiment: inhibitors of HCV core protein dimerization, primary screen, biochemical, TR-FRET, high-throughput (AID 1899)
# Settings: TR-FRET GST/Flag-core106 dimerization, 1536-well; at 5 µM; active compounds read high
# Method in brief: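 Assay system: Tagged HCV core106 pair (GST and Flag) | Buffer or medium: KF-containing HEPES buffer, pH 7.45, DTT, CHAPS, BSA | Also added: Eu donor and XL665 acceptor anti-tag antibodies | Dosing: One concentration, 5 µM, in 0.5% DMSO | Timing: 4 h at 22.5 °C | Technique: TR-FRET 671 and 617 nm emission | Repeats: Singlicate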
row,SMILES,inhibition
1,O=C(NC1CCS(=O)(=O)C1)NP(=S)(Oc1ccccc1)Oc1ccccc1 (configuration not stated),inactive: -1.23%
2,CCNC(=S)/N=C(\N)N[N+](=O)[O-],inactive: -1.15%
3,Cc1ccc(NP(=O)(Oc2cccc(C)c2)Oc2cccc(C)c2)nc1,inactive: 1.97%
4,CCOC(=O)NC(Sc1ccccc1)C(Cl)(Cl)Cl (configuration not stated),inactive: -1.81%
5,c1ccc(-c2nn[nH]n2)c(-c2nn[nH]n2)c1,inactive: -4.39%
6,CCN(N=Nc1nonc1N)c1nonc1N,inactive: -1.89%
7,O=[N+]([O-])c1cc([N+](=O)[O-])c(CCN2CCOCC2)c([N+](=O)[O-])c1,inactive: 34.1%
8,CN(C(=O)Cc1ccc(Cl)c(Cl)c1)[C@H]1CCCC[C@@H]1N1CCCC1,inactive: 2.64%
9,Cc1ccc(NP(=O)(Oc2ccccc2F)Oc2ccccc2F)nc1,inactive: -1.03%
10,Cc1cc(SC(NC(=O)c2ccc(F)cc2)C(Cl)(Cl)Cl)ncn1 (configuration not stated),inactive: -3.19%
11,CCOP(=O)(Nc1ccccc1)OCC,inactive: 4.61%
12,CC(=O)Nc1ccc([As](=O)(O)O)cc1,inactive: -3.41%
13,O=C(O)c1ccccc1[As](=O)(O)O,inactive: 11.6%
14,O=P(Nc1nc2ccc(Cl)cc2s1)(c1ccccc1)c1ccccc1,inactive: 7.47%
15,Nc1cc(N)c2nonc2c1[N+](=O)[O-],inactive: -3.52%
16,CC(C)CC(=O)NC(Sc1ccc(Cl)cc1)C(Cl)(Cl)Cl (configuration not stated),inactive: 2.76%
17,O=C(NC(Sc1ccncn1)C(Cl)(Cl)Cl)c1ccccc1 (configuration not stated),inactive: 1.91%
18,Cc1c2non([O-])c-2c(C)[n+](=O)[n+]1[O-],inactive: -3.26%
19,Oc1ccccc1CNc1ccccn1,inactive: 4.16%
20,Cc1ccc(OP(=O)(Nc2nccs2)Oc2ccc(C)cc2)cc1,inactive: 4.13%
21,COc1ccccc1OP(=O)(Nc1ccc(C)cn1)Oc1ccccc1OC,inactive: 1.03%

row,SMILES,inhibition
1,CN1CCCC(OC(=O)C(c2ccccc2)c2ccccc2)C1 (configuration not stated),inactive: -5.74%
2,Clc1ccc(Cl)c(NC2=NCC(CBr)S2)c1 (configuration not stated),inactive: -2.21%
3,NC(=O)c1cc([N+](=O)[O-])cc([N+](=O)[O-])c1N,inactive: -0.89%
4,Cc1ccc(N/C(=N/P(=O)(N2CCOCC2)N2CCOCC2)N2CCOCC2)cc1,inactive: -2.28%
5,CN(C(=O)Cc1ccc(Cl)c(Cl)c1)[C@H]1CCCC[C@H]1N1CCCC1,inactive: -9.38%
6,CN(C)C(=O)OCCc1n(C)cc[n+]1C,inactive: 0.41%
7,CC(C)=N/N=C(\N)N[N+](=O)[O-],inactive: -3.11%
8,CC1CCN(C(=O)Oc2c(Cl)cc(Cl)c3cccnc23)CC1,inactive: 2.39%
9,C[N+]1=C2C=CC=CC=C2SC12C([N+](=O)[O-])=CC([N+](=O)[O-])=C[C-]2[N+](=O)[O-] (configuration not stated),active: 54.2%
10,Nc1ccc([As](=O)(O)c2ccc(N)cc2)cc1,inactive: -1.87%
11,CCN(/C(=N/P(=O)(N1CCOCC1)N1CCOCC1)N1CCOCC1)c1ccc(OC)cc1,inactive: -5.66%
12,CC(=O)N1C2C3N(C(C)=O)C1C1N(C(C)=O)C(C(N1C(C)=O)N3C(C)=O)N2C(C)=O,inactive: 1.51%
13,O=[N+]([O-])c1cccc2n[nH]nc12,inactive: -6.87%
14,O=[N+]([O-])c1cc([N+](=O)[O-])c(CCNc2ccccc2)c([N+](=O)[O-])c1,active: 46.2%
15,CCc1nc2c(n1)c1c(non1O)c1c2no[n+]1[O-],inactive: -5.52%
16,Cc1ccc(NP(=O)(Oc2ccccc2)Oc2ccccc2)nc1,inactive: 0.04%
17,COc1ccc(C2=NCC(CBr)S2)cc1 (configuration not stated),inactive: -1.74%
18,O=[N+]([O-])c1cccc(NC2=NCC(CBr)S2)c1 (configuration not stated),inactive: 1.76%
19,CC(C)(C)C(=O)NC(Sc1ccncn1)C(Cl)(Cl)Cl (configuration not stated),inactive: -2.97%
20,O=[N+]([O-])c1ncn(CCn2ncnc2[N+](=O)[O-])n1,inactive: 3.97%
21,O=C(Nc1cc([As](=O)(O)O)ccc1O)c1ccccc1,inactive: -6.53%
